The supplement of paper PMC9931576
Human monoclonal antibodies against the spike receptor-binding domain (heavy:light variable regions). IC50 against pseudoviruses bearing the spike of naturally observed variants; lower = stronger; >10 µg/ml means not reached at the top dose. No active / inactive call. The stated detection limit is 0.0005 µg/ml; values near or below 0.001 µg/ml lie at the floor of the assay.

B1: BD56-934 (protein)
chain 1: QVQLVQSGAEVKKPGSSVKVSCKASGGTFSSDALRWVRQAPGQGLEWMGGIIPIFGTTSYAQKFQGRVTFTADESTSTAYMELSSLTSEDTAVYYCAKDSRTSPLYGMDVWGQGTTVTVSS
chain 2: DIQMTQSPSSLSASVGDRVTITCRASQTISRYLNWYQQVSGKAPKLLIYAASSLQSGVSSRFSGSGSGTDFTLTISSLQPEDFATYYCQQSYSTPLTFGGGTKVEIK
B2: CV07-262 (protein)
chain 1: QVQLVQSGAEVKKPGASVKVSCKASGYTFTGYYMHWVRQAPGQGLEWMGWINPNSGGTNYAQTFQGRVTMTRDTSITTTYMELSRLRSDDTAVYYCARVGWYDFGTPGDYYYYYGMDVWGQGTTVTVSS
chain 2: QSALTQPASVSGSPGQSITISCTGTSSDVGSYNLVSWYQQHPGKAPKLMIYEGSKRPSGVSNRFSGSKSGNTASLTISGLQAEDEADYFCCSYAGTSTFVFGTGTKVTVL
B3: BD56-963 (protein)
chain 1: QVQLVESGGGLVKPGGSLRLSCAASGFTFSDSYMGWIRQAPGKGLEWVSYISDSSSYSNYADSVKGRFTIFRDNAKNSLFLRMNSLRAEDTAVYYCARVHSVANYDRLTGYYRVGDAEYFQQWGQGTLVTVSS
chain 2: SYVLTQPPSVSVAPGKTATITCGGSNIGSKSVHWYQQKPGQAPVLVIYYNSDRPSVIPERFSGSNSGNTATLTISRVDAGDEADYYCQVWDSSTDHVVFGGGTRLTVL
B4: BD56-954 (protein)
chain 1: QVQLVQSGAEVKKPGASVKVSCKASGYTFTSYYMHWVRQAPGQGLEWMGIIYPSGGGTSYAQKFQGRVTMIRDTSTSTVYMEVSSLTSEDTAVYYCAREGCSSTSCFDYWGQGTLVTVSS
chain 2: SDVLTQPPSVSVAPGQAARITCGTNNIGSKSVHWYQQKPGQAPVLVVYDDSDRPSGIPERFSGSNSGNTATLTISGVEAGDEADYYCQVWDGSSDHLYVFGTGTKVTVL
B5: BD56-951 (protein)
chain 1: QVQLVQSGAEVKVPGSSVKVSCKASGGTFSSYSITWVRQAPGQGLEWMGRIIPILGIANYAQRFEGKVTITADKSTSTAYMELSSLKSEDTAVYYCARERGYTSGSGSAWYLDLWGRGTLVTLSS
chain 2: QSVLTQPPSVSGAPGQRVTISCTGSNSNIGAGYDVHWYQQLPGTAPKLLIYRNTNRPSGVPDRFFGSRSGTSASLAITGLQAEDEADYYCQSYDSSLSAVVFGGGTKLTVL
B6: BD56-933 (protein)
chain 1: QVQLVESGGGVVQPGRSLRLSCAASGFTFRRYGMHWVRQAPGKGLIWVAVISYDGDKKYYADSVKGRFTISRDNSKNTLYLQMDSLRAEDTAVYYCAKVLGEYCSAGTCYGDYFDYWGQGTLVTVSS
chain 2: DIQMTQSPSSLSASIGDRVTITCRASQGISNSLAWYQRKPGKAPKLLLYDASRLESGVPSRFSGSGSGTDYTLTISSLQPEDFATYYCQQYYSTPPWTFGQGTKVEIK
B7: BD56-949 (protein)
chain 1: QVQLVQSGAEVKKPGASVKVSCKASGYSFISFAMHWVRQAPGQRLEWMGWINPGTRDTEYSQKFQGRVTFTRDTSASTAYMELSSLRSEDTAVYYCARDRKWNGNYYYAMDVWGQGTTVTVSS
chain 2: DIQMTQSPSTLSASVGDRVTITCRASQTISSWLAWYQQKPGKAPNLLIYKASSLESGVPSRFSGSGTGTEFTLTISTLQPDDFATYYCQQYNSYPWTFGQGTKVEIK
B8: BD56-935 (protein)
chain 1: QVQLQESGPGLVKPSGTLSLTCAVSGGSISGPHWWSWVRQSPGKGLEWLGEIFHTGSTNYNPSLKSRVTISVDKSKNQFSLKLSSVTAADTAVYYCARSTGFLDYWGQGTLVIVSS
chain 2: DIQMTQSPSSLSASVGDRVSITCRASQGISNSLAWYQQKPGKAPKVLLYEASTLESGVPSRFSGSGSGTDFTLTISSLQPEDFATYYCQQYYSIRTFGQGTKVETK
B9: BD56-940 (protein)
chain 1: QVQLVQSGAEVRKPGASVKVSCKASGYRFSSYGITWVRQAPGQGLQWVGWISAYNGDADYAQKVQGRVTMTTDTSTSTAYMELRSLRSDDTAVYYCARDTGSSGYYHGMDVWGQGTTVTVSS
chain 2: EIVLTQSPDTLSLSPGERATLSCRASQSVSSYLAWYQQKPGQAPRLLIYDASNRATGTPARFSGSGSGTDFTLTISNLEPEDFAVYYCQQRINWPPETFGQGTTVEIK
B10: BD56-942 (protein)
chain 1: EVQLVESGGGLVKPGGSLRLSCAASGFTFGSYSMNWVRQAPGKGLEWVSFISSSGTYIKYTDSLKGRVTISRDNAKNSLNLQMNSLRVEDTAVYFCARVTWGCDSTGCHNYYAMDVWGQGTTVTVSS
chain 2: QSALTQPRSVSGSPGQSVTISCTGTSSDVGSYNYISWYQHHPGKAPKLMIYDVNKRPSGVPDRFSGSKSGNTASLTNSGLQAEDEADYYCCSYAGNYTFVFGTGTTVTVL
B11: BD56-939 (protein)
chain 1: QVQLVQSGAEVKKPGASVKVSCKAPIDTFTTYYLHWVRQAPGQGLEWMGIMNPDGGSTSYAKKFQHRVTMTRDTSSSTVYLELRSLRSDDTGVYYCARGGLVPDATEPFDSWGQGTLVTVSS
chain 2: DIQMTQSPSTLSASVGDRVTITCRASQSVSNWLAWYQQKPGKAPKLLIYKASILETGVPSRFSGSGSGTQFSLTISSLQPDDFATYYCQQYNRYLYTFGQGTKLEIK
B12: BD56-945 (protein)
chain 1: QLQLQESGPGLVKPSETLSLTCTVSGGSISSSNYYWGWIRQPPGKGLEWIGSIFYTGITYYNPSLKSRVTISVDTSKNQFSLKLSSVPAADTAVYYCARHYRHIAAADYWGQGTLVTVSS
chain 2: QSALTQPASVSGSPGQSITISCTGTSSDVGSYNLVSWYQQHPGRAPKLMIYEVSERPSGVSDRFSGSKSGNTASLSISGLQAEDEADYYCCSYVGTSTFYVFGTGTKVTVV

target: SARS-CoV-2 Omicron BA.1 spike pseudovirus; assay: pseudovirus neutralization IC50; higher = weaker neutralization
Experimental: (§1)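 Single-round VSV luciferase pseudovirus mixed with antibody dilutions for 1 h and put on Huh-7 cells for about a day; IC50 from the dose curve.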

Row | Binder | pseudovirus neutralization IC50 [µg/mL]
1 | B1 | 0.287
2 | B2 | > 10
3 | B3 | 0.143
4 | B4 | > 10
5 | B5 | 0.225
6 | B6 | > 10
7 | B7 | 0.0366
8 | B8 | 0.0428
9 | B9 | 0.569
10 | B10 | 0.0594
11 | B11 | > 10
12 | B12 | > 10

target: SARS-CoV-2 Omicron BA.2 spike pseudovirus; assay: as above
Experimental: as §1

Row | Binder | pseudovirus neutralization IC50 [µg/mL]
13 | B1 | 0.198
14 | B2 | > 10
15 | B3 | 0.207
16 | B4 | > 10
17 | B5 | 0.131
18 | B6 | > 10
19 | B7 | 0.031
20 | B8 | 0.0461
21 | B9 | 0.327
22 | B10 | 0.0262
23 | B11 | > 10
24 | B12 | > 10

target: SARS-CoV-2 Omicron BA.2.75 spike pseudovirus; assay: as above
Experimental: as §1

Row | Binder | pseudovirus neutralization IC50 [µg/mL]
25 | B1 | 0.173
26 | B2 | > 10
27 | B3 | 0.146
28 | B4 | > 10
29 | B5 | 0.116
30 | B6 | > 10
31 | B7 | 0.0353
32 | B8 | 0.0386
33 | B9 | 1.63
34 | B10 | 0.0394
35 | B11 | > 10
36 | B12 | > 10

target: SARS-CoV-2 Omicron BA.5 spike pseudovirus; assay: as above
Experimental: as §1

Row | Binder | pseudovirus neutralization IC50 [µg/mL]
37 | B1 | > 10
38 | B2 | > 10
39 | B3 | 3.5
40 | B4 | > 10
41 | B5 | > 10
42 | B6 | > 10
43 | B7 | > 10
44 | B8 | 4.56
45 | B9 | > 10
46 | B10 | 0.036
47 | B11 | > 10
48 | B12 | > 10

target: SARS-CoV-2 Omicron BQ.1.1 spike pseudovirus; assay: as above
Experimental: as §1

Row | Binder | pseudovirus neutralization IC50 [µg/mL]
49 | B1 | > 10
50 | B2 | > 10
51 | B3 | > 10
52 | B4 | > 10
53 | B5 | > 10
54 | B6 | > 10
55 | B7 | > 10
56 | B8 | 4.17
57 | B9 | > 10
58 | B10 | 1.12
59 | B11 | > 10
60 | B12 | > 10

target: SARS-CoV-2 Omicron XBB spike pseudovirus; assay: as above
Experimental: as §1

Row | Binder | pseudovirus neutralization IC50 [µg/mL]
61 | B1 | 1.34
62 | B2 | > 10
63 | B3 | 1.5
64 | B4 | > 10
65 | B5 | 2.74
66 | B6 | > 10
67 | B7 | 2.65
68 | B8 | 3.8
69 | B9 | 2.79
70 | B10 | 1.66
71 | B11 | > 10
72 | B12 | > 10

target: SARS-CoV-2 early D614G spike pseudovirus; assay: as above
Experimental: as §1

Row | Binder | pseudovirus neutralization IC50 [µg/mL]
73 | B1 | 0.689
74 | B2 | 0.0184
75 | B3 | 0.00734
76 | B4 | > 10
77 | B5 | 0.461
78 | B6 | > 10
79 | B7 | 0.0528
80 | B8 | 0.00212
81 | B9 | 0.81
82 | B10 | 0.0355
83 | B11 | > 10
84 | B12 | > 10
